The subject of this experiment is SARS-CoV-2–infected Vero E6 cells. Briefly: cell protection assay (CCK8). The following applies: read-out: EC50, cell protection, MOI 0.1, 3 dpi.

EC50 data for one compound are collected here from PMC8099175, “SARS-CoV-2 M^pro inhibitors with antiviral activity in a transgenic mouse model” (Science (New York, N.y.), 2021).

For `O=C[C@H](C[C@@H]1CCNC1=O)NC(=O)[C@H]1[C@@H]2CCC[C@H]2CN1C(=O)COc1ccc(Cl)cc1`, the EC50 was 670 nM.
